Measurements reported in ChEMBL document CHEMBL1142398, “Chemical stability of the peroxide bond enables diversified synthesis of potent tetraoxane antimalarials” (J Med Chem, 2008).

What was measured:
Type in all cases: functional
[1] = system: Plasmodium berghei; assay: Antimalarial activity against Plasmodium berghei KBG173 infected CD1 mice (Mus musculus) at 300 mg/kg/day subcutaneous dose as survival time after 3-5 days
[2] = system: Plasmodium berghei; assay: Antimalarial activity against Plasmodium berghei KBG173 infected CD1 mice (Mus musculus) at 9.3 mg/kg/day subcutaneous dose as survival time after 3-5 days
[3] = system: Plasmodium berghei; assay: Antimalarial activity against Plasmodium berghei KBG173 infected CD1 mice (Mus musculus) at 37.5 mg/kg/day subcutaneous dose as survival time after 3-5 days
[4] = system: Plasmodium berghei; assay: Antimalarial activity against Plasmodium berghei KBG173 infected CD1 mice (Mus musculus) at 150 mg/kg/day subcutaneous dose as survival time after 3-5 days

[N-]=[N+]=NCC1CCC2(CC1)OOC1(CCCCC1)OO2
Survival [1]: 30.6 days | Survival [2]: 10 days | Survival [3]: 19.2 days | Survival [4]: 26.4 days
